In paper PMC7954794, “Protein context shapes the specificity of SH3 domain-mediated interactions in vivo” (Nature Communications, 2021):

Tests used:
Type in all cases: cell-based, Saccharomyces cerevisiae
Design in all cases: key: 0: SH3-independent; 1: SH3-dependent PPIs; 2: SH3-inhibited PPIs
ABP1 = experiment: DHFR-PCA on solid medium, bait ABP1 (Fig. 1B); conditions: bait ABP1, label = prey
Source text: (§1) Supplement 41467_2021_21873_MOESM8_ESM.xlsx, sheet "Fig1B" | column: medsize; medrep; Ratio; Score

BEM1-1 = experiment: DHFR-PCA on solid medium, bait BEM1-1 (Fig. 1B); conditions: bait BEM1-1, label = prey
Source text: as §1

BEM1-2 = experiment: DHFR-PCA on solid medium, bait BEM1-2 (Fig. 1B); conditions: bait BEM1-2, label = prey
Source text: as §1

| Molecule | Score (ABP1) | Score (BEM1-1) | Score (BEM1-2) |
| --- | --- | --- | --- |
| YIL033C (protein, UniProt P07278 2-416, looked up) cAMP-dependent protein kinase …: VSSLPKESQAELQLFQNEINAANPSDFLQFSANYFNKRLEQQRAFLKAREPEFKAKNIVLFPEPEESFSRPQSAQSQSRSRSSVMFKSPFVNEDPHSNVFKSGFNLDPHEQDTHQQAQEEQQHTREKTSTPPLPMHFNAQRRTSVSGETLQPNNFDDWTPDHYKEKSEQQLQRLEKSIRNNFLFNKLDSDSKRLVINCLEEKSVPKGATIIKQGDQGDYFYVVEKGTVDFYVNDNKVNSSGPGSSFGELALMYNSPRAATVVATSDCLLWALDRLTFRKILLGSSFKKRLMYDDLLKSMPVLKSLTTYDRAKLADALDTKIYQPGETIIREGDQGENFYLIEYGAVDVSKKGQGVINKLKDHDYFGEVALLNDLPRQATVTATKRTKVATLGKSGFQRLLGPAVDVLKLNDPTRH | 0 | 0 | 0 |
| YJR076C (protein, UniProt P32458 2-415, looked up) Cell division control protein …: SGIIDASSALRKRKHLKRGITFTVMIVGQSGSGRSTFINTLCGQQVVDTSTTILLPTDTSTEIDLQLREETVELEDDEGVKIQLNIIDTPGFGDSLDNSPSFEIISDYIRHQYDEILLEESRVRRNPRFKDGRVHCCLYLINPTGHGLKEIDVEFIRQLGSLVNIIPVISKSDSLTRDELKLNKKLIMEDIDRWNLPIYNFPFDEDEISDEDYETNMYLRTLLPFAIIGSNEVYEMGGDVGTIRGRKYPWGILDVEDSSISDFVILRNALLISHLHDLKNYTHEILYERYRTEALSGESVAAESIRPNLTKLNGSSSSSTTTRRNTNPFKQSNNINNDVLNPASDMHGQSTGENNETYMTREEQIRLEEERLKAFEERVQQELLLKRQELLQREKELREIEARLEKEAKIKQEE | 2 | 0 | 1 |
| YGR229C (protein, UniProt P32566 1-505, looked up) Cell wall assembly regulator …: MDLFKRKVKEWVYSLSTDDHYAEYNPDETPTFNMGKRLNSNNGQVNPSQMHLNSVDEEMSMGFQNGVPSNEDINIDEFTSTESNDGVSETLLAWRHIDFWTSEHNPDLNATLSDPCTQNDITHAEEDLEVSFPNPVKASFKIHDGQEDLESMTGTSGLFYGFQLMTLDQVVAMTQAWRNVAKNLNKRSQQGLSHVTSTGSSSSMERLNGNKFKLPNIPDQKSIPPNAVQPVYAHPAWIPLITDNAGNHIGVDLAPGPNGKYAQIITFGRDFDTKFVIAENWGEFLLSFANDLEAGNWYLVDDNDDYFSGDGELVFRDKKSNGPIQDYFEVLKRRTWIKYQENLRSQQQKSQPDTSLQEQKYVPASQKKVAAEQPSTLNAESIKGEDSGSADVQSVQDHESVKIVKTEPSEAETTTVNTESLGQAEHEIKADNVDIKQESERKEDEKQPKVEEKEHVENEHVTESAKKDDDVNKQTEEMNKKEENEIRSDDAKVEEAREEFENIAL | 0 | 1 | 0 |
| YHR064C (protein, UniProt P38788 1-538, looked up) Ribosome-associated complex …: MSSPVIGITFGNTSSSIAYINPKNDVDVIANPDGERAIPSALSYVGEDEYHGGQALQQLIRNPKNTIINFRDFIGLPFDKCDVSKCANGAPAVEVDGKVGFVISRGEGKEEKLTVDEVVSRHLNRLKLAAEDYIGSAVKEAVLTVPTNFSEEQKTALKASAAKIGLQIVQFINEPSAALLAHAEQFPFEKDVNVVVADFGGIRSDAAVIAVRNGIFTILATAHDLSLGGDNLDTELVEYFASEFQKKYQANPRKNARSLAKLKANSSITKKTLSNATSATISIDSLADGFDYHASINRMRYELVANKVFAQFSSFVDSVIAKAELDPLDIDAVLLTGGVSFTPKLTTNLEYTLPESVEILGPQNKNASNNPNELAASGAALQARLISDYDADELAEALQPVIVNTPHLKKPIGLIGAKGEFHPVLLAETSFPVQKKLTLKQAKGDFLIGVYEGDHHIEEKTLEPIPKEENAEEDDESEWSDDEPEVVREKLYTLGTKLMELGIKNANGVEIIFNINKDGALRVTARDLKTGNAVKGEL | 0 | 1 | 0 |
| YML016C (protein, UniProt P26570 2-692, looked up) Serine/threonine-protein …: GNSSSKSSKKDSHSNSSSRNPRPQVSRTETSHSVKSAKSNKSSRSRRSLPSSSTTNTNSNVPDPSTPSKPNLEVNHQRHSSHTNRYHFPSSSHSHSNSQNELLTTPSSSSTKRPSTSRRSSYNTKAAADLPPSMIQMEPKSPILKTNNSSTHVSKHKSSYSSTYYENALTDDDNDDKDNDISHTKRFSRSSNSRPSSIRSGSVSRRKSDVTHEEPNNGSYSSNNQENYLVQALTRSNSHASSLHSRKSSFGSDGNTAYSTPLNSPGLSKLTDHSGEYFTSNSTSSLNHHSSRDIYPSKHISNDDDIENSSQLSNIHASMENVNDKNNNITDSKKDPNEEFNDIMQSSGNKNAPKKFKKPIDIDETIQKLLDAGYAAKRTKNVCLKNNEILQICIKAREIFLSQPSLLELSPPVKIVGDVHGQYGDLLRLFTKCGFPPSSNYLFLGDYVDRGKQSLETILLLFCYKIKYPENFFLLRGNHECANVTRVYGFYDECKRRCNIKIWKTFIDTFNTLPLAAIVAGKIFCVHGGLSPVLNSMDEIRHVVRPTDVPDFGLINDLLWSDPTDSPNEWEDNERGVSYCYNKVAINKFLNKFGFDLVCRAHMVVEDGYEFFNDRSLVTVFSAPNYCGEFDNWGAVMSVSEGLLCSFELLDPLDSAALKQVMKKGRQERKLANQQQQMMETSITNDNESQQ | 2 | 0 | 1 |
| YLR314C (protein, UniProt P32457 2-520, looked up) Cell division control protein …: SLKEEQVSIKQDPEQEERQHDQFNDVQIKQESQDHDGVDSQYTNGTQNDDSERFEAAESDVKVEPGLGMGITSSQSEKGQVLPDQPEIKFIRRQINGYVGFANLPKQWHRRSIKNGFSFNLLCVGPDGIGKTTLMKTLFNNDDIEANLVKDYEEELANDQEEEEGQGEGHENQSQEQRHKVKIKSYESVIEENGVKLNLNVIDTEGFGDFLNNDQKSWDPIIKEIDSRFDQYLDAENKINRHSINDKRIHACLYFIEPTGHYLKPLDLKFMQSVYEKCNLIPVIAKSDILTDEEILSFKKTIMNQLIQSNIELFKPPIYSNDDAENSHLSERLFSSLPYAVIGSNDIVENYSGNQVRGRSYPWGVIEVDNDNHSDFNLLKNLLIKQFMEELKERTSKILYENYRSSKLAKLGIKQDNSVFKEFDPISKQQEEKTLHEAKLAKLEIEMKTVFQQKVSEKEKKLQKSETELFARHKEMKEKLTKQLKALEDKKKQLELSINSASPNVNHSPVPTKKKGFLR | 0 | 0 | 1 |
| YER008C (protein, UniProt P33332 1-1336, looked up) Exocyst complex component SEC3: MRSSKSPFKRKSHSRETSHDENTSFFHKRTISGSSAHHSRNVSQGAVPSSAPPVSGGNYSHKRNVSRASNSSQTSNFLAEQYERDRKAIINCCFSRPDHKTGEPPNNYITHVRIIEDSKFPSSRPPPDSKLENKKKRLLILSAKPNNAKLIQIHKARENSDGSFQIGRTWQLTELVRVEKDLEISEGFILTMSKKYYWETNSAKERTVFIKSLITLYIQTFEGHVPELVNWDLSLFYLDERSYQRAVITNRPGSVSPIKSPTSNFTTNTTQSVGSVPFSAPTERTRRSETESVNPVSTPASVEYHAGMKSLNKAPYSSNSTLNEVNKRYELEQQQQQEEAELRRLEEQKRLQLQKENEMKRLEEERRIKQEERKRQMELEHQRQLEEEERKRQMELEAKKQMELKRQRQFEEEQRLKKERELLEIQRKQREQETAERLKKEEQEALAKKEEEEKSKRNKVDNESYTQEINGKVDNLLEDLNAVLAEETETTPTMQNGTYVPERSTARAHDQLKKPLNIAKVESLGGSDLNDSISLSDEIAGLNTSNLSGEDQDEKNDLSFEKGDEVRYSNNFEGEAPHVYHEVSIIQEEAPAVSQKLILPEENNESEALIESKEEIKTMENIDDEVLLEILTDINWSIEDDADSMIERIDLRLAETEYLFNQNLLSLQKIGPNIRPYEDKVNDECHRIIPTLSLFLMEMSNFSNDIENVESQDNGLQVESANKKLLWNTLDELLKTVSLDEISLNQLLECPIREKNLPWMENQLNLLLKAFQAIGSDGNEVEYNLREISGLKQRLQFYEKVTKIFLNRIVEEMQKKFSNIRGQDISHDQMIRILTTLLIFSPLILFCKEISQKSYQAIVENWNVSIQPVYMELWTKKISQLQGIDTNDEKMNELSLSQLLNEWDTFRKERKTNDINPVFKNSFSLLTECLQTMRQECIVYQNFVEVFFHISSKHNFEEYIKHFNDPDAPPILLDTVKVMQSDREAAVIETQLVSRIFQPIVTRLSSYFVELVKAEPTVAPALTFYLENEIKSLESSNHEFLLSAVTRMYTQIKQVWSDNVEEQVLHFERISNATTNGEILPGILDLPVGLKNSEDLFQFAKRSMDIKDTDEGYESIELMNSSFRKLSIAATRSITHKEVNSSINPNLSDTAALNNDYMETISLLVNSNWLTEMLSMLNFNKDGIFDTSLQNVKKVFDVEKESYASFLLRDTMPKLTAFVYGVSNIIENTNNVNMTNPSRWAAYSRQNLENILLAYTSHEIETLVKRLHTHMVNDFGYHQENAINNVLCDKLWSCIQGQTVSLYLKLYTVIDKHYRGTNIRFTKNDIISAFEEYKNA | 2 | 1 | 1 |
| YDL225W (protein, UniProt Q07657 2-551, looked up) Seventh homolog of septin 1: STASTPPINLFRRKKEHKRGITYTMLLCGPAGTGKTAFANNLLETKIFPHKYQYGKSNASISSNPEVKVIAPTKVVSFNSKNGIPSYVSEFDPMRANLEPGITITSTSLELGGNKDQGKPEMNEDDTVFFNLIMTHGIGENLDDSLCSEEVMSYLEQQFDIVLAEETRIKRNPRFEDTRVHVALYFIEPTGHGLREVDVELMKSISKYTNVLPIITRADSFTKEELTQFRKNIMFDVERYNVPIYKFEVDPEDDDLESMEENQALASLQPFAIITSDTRDSEGRYVREYPWGIISIDDDKISDLKVLKNVLFGSHLQEFKDTTQNLLYENYRSEKLSSVANAEEIGPNSTKRQSNAPSLSNFASLISTGQFNSSQTLANNLRADTPRNQVSGNFKENEYEDNGEHDSAENEQEMSPVRQLGREIKQENENLIRSIKTESSPKFLNSPDLPERTKLRNISETVPYVLRHERILARQQKLEELEAQSAKELQKRIQELERKAHELKLREKLINQNKLNGSSSSINSLQQSTRSQIKKNDTYTDLASIASGRD | 0 | 0 | 1 |
| YLR332W (protein, UniProt P36027 26-376, looked up) Cell wall integrity sensor …: QFFVQSSSSNSSAVSTARSSVSRVSSSSSILSSSMVSSSSADSSSLTSSTSSRSLVSHTSSSTSIASISFTSFSFSSDSSTSSSSSASSDSSSSSSFSISSTSATSESSTSSTQTSTSSSSSLSSTPSSSSSPSTITSAPSTSSTPSTTAYNQGSTITSIINGKTILSNHYTTVTYTPSATADSSNKSKSSGLSKKNRNIVIGCVVGIGVPLILVILALIYMFCIQSSRTDFIDSDGKVVTAYRANKFTKWWYMLLGKKVSDEYHSDSPLGGSASSAGGLDLDEADDVMEQSSLFDVRIRDSDSVLPNANTADHNNTNSGGEPINSSVASNDIIEEKFYDEQGNELSPRNY | 2 | 0 | 0 |

The amount applied is not stated for every result.
